Reference: article PMC10831071, “Reaction hijacking inhibition of Plasmodium falciparum asparagine tRNA synthetase” (Nature Communications, 2024)

What was measured:
[1] = test system: P. falciparum Dd2-B2 clone; assay type: cell-based, Plasmodium falciparum; settings: OSM-S-106 selection at 3 × IC90
Text: Wells were monitored daily by smear during the first 7 days to ensure parasite clearance, during which media was changed daily. […] Whole-genome sequencing analysis employed MiSeq data from libraries of 2 × 300 bp paired end reads.

[2] = test system: Dd2 parasites selected with OSM-S-106; assay: Sensitivity of ramp-up OSM-S-106-selected Dd2 clones; assay type: cell-based, Plasmodium falciparum

Compound: Nc1ncnc2cc(-c3cccc(S(N)(=O)=O)c3)sc12 [OSM-S-106]
- Minimum Inoculum for Resistance (MIR) [1]: > 2.4 × 10^8
- IC50 (fold increase) ([2]; parasite Dd2-B2-2 (parent)): 1.0 fold
- IC50 (fold increase) ([2]; parasite Dd2-B2-3 (parent)): 1.0 fold
- IC50 (fold increase) ([2]; parasite Dd2-OSM-2A6): 8.8 fold
- IC50 (fold increase) ([2]; parasite Dd2-OSM-2A9): 4.1 fold
- IC50 (fold increase) ([2]; parasite Dd2-OSM-2B2): 8.8 fold
- IC50 (fold increase) ([2]; parasite Dd2-OSM-2D6): 9.9 fold
- IC50 (fold increase) ([2]; parasite Dd2-OSM-3E5): 2 fold
- IC50 (fold increase) ([2]; parasite Dd2-OSM-3H7): 2.8 fold
